According to PubChem BioAssay AID504582 (Broad Institute, 2011):
Only a part is listed here, and it is no random draw. Activity calls are given as the source filed them. Cut-off read from the data, not from the text of the source: active = growth rescue above about 28% (passing the limit was not always enough); inconclusive = no clear call, values can overlap the other calls.

assay: rescue of yeast from PfHsp40 toxicity, primary screen, S. cerevisiae, ATP luminescence (AID 504582);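 note: yeast W303a lacking pdr1 and pdr3 grown in galactose medium; growth measured after three days at 30 °C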; details: S. cerevisiae expressing PfHsp40, growth rescue, at 12.5 µM, active compounds read high

| SMILES | growth rescue |
| --- | --- |
| Nc1cccc2ccc([As](=O)(O)O)cc12 | inactive: 1.61% |
| CCN(N=Nc1nonc1N)c1nonc1N | inactive: 2.27% |
| CC1=CC(=O)OC2CC3OC4C[C@@H](C)C5OC6CC7O[C@]8(C)C/C=C\C9OC%10CC%11OC(CC(C)CO)CC(O)[C@]%11(C)OC%10CC9OC8C[C@]7(C)O[C@]6(C)CCC5OC4C[C@]3(C)OC12 (some centres undefined) | inactive: -2.32% |
| Clc1ccc(Cl)c(NC2=NCC(CBr)S2)c1 (centres undefined) | inactive: -0.113% |
| CN1CCCC(OC(=O)C(c2ccccc2)c2ccccc2)C1 (centres undefined) | inactive: -0.162% |
| COc1ccccc1OP(=O)(Nc1ccc(C)cn1)Oc1ccccc1OC | inactive: -0.914% |
| CN(C(=O)Cc1ccc(Cl)c(Cl)c1)[C@H]1CCCC[C@H]1N1CCCC1 | inactive: -1.17% |
| Cc1ccc(N/C(=N/P(=O)(N2CCOCC2)N2CCOCC2)N2CCOCC2)cc1 | inactive: -1.51% |
| C[C@H]1[C@@H](OS(=O)(=O)O)C[C@@H]2C[C@H]([C@@H](O)c3cc(=O)[nH]c(=O)[nH]3)NC3=NC[C@H]1N32 | inactive: 0.837% |
| NC(=O)c1cc([N+](=O)[O-])cc([N+](=O)[O-])c1N | inactive: -0.796% |
| CC(O)C1C=CC=CC(=O)OC2CC3OC4C5OC5(C)C(O)CC4(COC(=O)C(O)C(C)CCO1)C2(C)C31CO1 (centres undefined) | inactive: 1.27% |
| COc1ccc(O)c2c(=O)c3c(OC)cc4c(c3oc12)C1C=COC1O4 (centres undefined) | inactive: -0.0325% |
| Oc1ccccc1CNc1ccccn1 | inactive: -1.07% |
| O=C(NC(Sc1ccncn1)C(Cl)(Cl)Cl)c1ccccc1 (centres undefined) | inactive: -0.0395% |
| CC(C)CC(=O)NC(Sc1ccc(Cl)cc1)C(Cl)(Cl)Cl (centres undefined) | inactive: -0.475% |
| Nc1cc(N)c2nonc2c1[N+](=O)[O-] | inactive: -0.482% |
| CC(C)(C)C(=O)NC(Sc1ccccc1)C(Cl)(Cl)Cl (centres undefined) | inactive: -0.739% |
| CCc1cc(O)c([N+](=O)[O-])c(C)c1[N+](=O)[O-] | inactive: 0.232% |
| O=P1(Nc2nc3ccc(Cl)cc3s2)COc2ccccc2O1 (centres undefined) | inactive: 0.765% |
| CCOc1ccc(C2=NCC(CBr)S2)cc1 (centres undefined) | inactive: 0.438% |
| CC(=O)Nc1ccc([As](=O)(O)O)c(O)c1 | inactive: 1.01% |
| CC(=O)Nc1ccc(Oc2c([N+](=O)[O-])cc([N+](=O)[O-])cc2[N+](=O)[O-])cc1 | inactive: 0.236% |
| C=C(CO)CC1CC(O)[C@]2(C)OC3CC4OC5C[C@]6(C)O[C@]7(C)CCC8OC9C[C@]%10(C)OC%11C(C)=CC(=O)OC%11CC%10OC9C[C@@H](C)C8OC7CC6O[C@]5(C)C/C=C\C4OC3CC2O1 (some centres undefined) | inactive: -2.41% |

| SMILES | growth rescue |
| --- | --- |
| Cc1ccccc1CN(C)C(=O)COC(=O)C(O)(c1ccccc1)c1ccccc1 | inactive: 0.713% |
| C[C@@H]1C=CCP(=O)(Oc2ccccc2)O1 (some centres undefined) | inactive: 5.99% |
| C[C@H]1OP(=O)(Oc2ccccc2)C[C@@H]2O[C@@H]21 (some centres undefined) | inactive: -0.81% |
| N#C/C(=C\c1ccc(N(CCBr)CCBr)cc1)C(N)=O | inactive: 0.465% |
| CC(=O)c1ccc(N2CC2c2ccncc2)cc1 (centres undefined) | inactive: -0.455% |
| COC(=O)C1(C)COP(=O)(NCc2ccccc2)OC1 (centres undefined) | inactive: 1.26% |
| C=C(COC(=O)CCC(=O)O)CC1CC(O)[C@]2(C)OC3CC4OC5C[C@]6(C)O[C@]7(C)CCC8OC9C[C@]%10(C)OC%11C(C)=CC(=O)OC%11CC%10OC9C[C@@H](C)C8OC7CC6O[C@]5(C)C/C=C\C4OC3CC2O1 (some centres undefined) | inactive: -0.544% |
| O=P1(N(CCCl)CCCl)OCCC2CCCCN21 (centres undefined) | inactive: 0.485% |
| c1ccc(-c2nn[nH]n2)c(-c2nn[nH]n2)c1 | inactive: -1.76% |
| Cc1ccc(NP(=O)(Oc2cccc(C)c2)Oc2cccc(C)c2)nc1 | inactive: 2.99% |
| O=C(NC1CCS(=O)(=O)C1)NP(=S)(Oc1ccccc1)Oc1ccccc1 (centres undefined) | inactive: 2.92% |
| CCNC(=S)/N=C(\N)N[N+](=O)[O-] | inactive: 0% |
| Cc1ccccc1OP(=O)(Nc1ccccn1)Oc1ccccc1C | inactive: 0.337% |
| CC(NC(=O)COC(=O)C(O)(c1ccccc1)c1ccccc1)c1ccccc1 (centres undefined) | inactive: -0.564% |
| CN(C)C(=O)Oc1noc2ccccc12 | inactive: 0.444% |
| O=c1c2cc([N+](=O)[O-])ccc2[nH]c2c([N+](=O)[O-])cc([N+](=O)[O-])cc12 | inactive: -0.902% |
| O=C(OC1CN2CCC1CC2)c1ccccc1 (centres undefined) | inactive: 0.536% |
| CCC(=O)N1C2C3N(C(=O)CC)C1C1N(C(=O)CC)C(C(N1C(=O)CC)N3C(=O)CC)N2C(=O)CC | inactive: -0.068% |
| COC(=O)c1cc2c(s1)N=C(c1ccccc1)N(C)P2(=O)N1CCOCC1 (centres undefined) | inactive: 1.18% |
| Cc1ccc(OP(=O)(Nc2ccccn2)Oc2ccc(C)cc2)cc1 | active: 82.3% |
| CC(=O)NC(SC(=S)N(CC(C)C)CC(C)C)C(Cl)(Cl)Cl (centres undefined) | inactive: 2.99% |
| O=P(Nc1nc2ccccc2s1)(c1ccccc1)c1ccccc1 | inactive: -2.72% |
| C[C@H]1OP(=O)(Oc2ccccc2)[C@H](O)[C@H](O)[C@H]1N=[N+]=[N-] (some centres undefined) | inactive: -1.12% |

| SMILES | growth rescue |
| --- | --- |
| O=P(Nc1ccccn1)(c1ccc(Br)cc1)c1ccc(Br)cc1 | inactive: -1.06% |
| COc1ccc(N)c([N+](=O)[O-])c1[N+](=O)[O-] | inactive: 0.354% |
| O=C(OC1CN2CCC1CC2)c1cccc(Cl)c1 (centres undefined) | inactive: -1.08% |
| Nc1ccc([As](=O)(O)c2ccc([N+](=O)[O-])cc2)cc1 | inactive: -1.99% |
| C(Cc1nn[nH]n1)Cc1nn[nH]n1 | inactive: -1.73% |
| O=[As](O)(c1ccccc1)c1ccc(O)cc1 | inactive: 1.09% |
| O=[N+]([O-])c1ncn(CCn2cnc([N+](=O)[O-])n2)n1 | inactive: -0.836% |
| CC(=O)NC(SC(=S)N(C)C)C(Cl)(Cl)Cl (centres undefined) | inactive: 8.11% |
| O=[N+]([O-])c1ccc(O)c(/C=N/Nc2ccc([N+](=O)[O-])cc2[N+](=O)[O-])c1 | inactive: -2.52% |
| c1nnnn1CCn1cnnn1 | inactive: 0.0895% |
| O=P(Nc1nccs1)(c1ccccc1)c1ccccc1 | inactive: 0.105% |
| CC(C)C(=O)NC(Sc1ccccc1)C(Cl)(Cl)Cl (centres undefined) | inactive: 0.04% |
| Clc1n[nH]nc1-c1nn[nH][15n]1 | inactive: 0.658% |
| CC(C)(C)C(=O)NC(Sc1ncccn1)C(Cl)(Cl)Cl (centres undefined) | inactive: -1.09% |
| CCC1=CC2Cc3nc4ccc(Cl)cc4c(N)c3C(C1)C2 (centres undefined) | inactive: 0.416% |
| O=P1(Nc2ccccn2)COc2ccccc2OC1 | inactive: -0.798% |
| CCOP(=O)(NC(=NC(C)c1ccccc1)NC(C)c1ccccc1)OCC (centres undefined) | inactive: -0.274% |
| CCOP(=O)(Nc1ccc(C)cn1)OCC | inactive: -0.936% |
| CN(C(=O)Cc1ccc(Cl)c(Cl)c1)[C@@H]1CCCC[C@H]1N1CCCC1 | inactive: 0.187% |
| CC(C)/C=N\N=C(\N)N[N+](=O)[O-] | inactive: -0.463% |
| CC1(CBr)Cn2c(nc3ccccc3c2=O)S1 (centres undefined) | inactive: -0.181% |
| C=C(C=O)CC1CC(O)[C@]2(C)OC3CC4OC5C[C@]6(C)O[C@]7(C)CCC8OC9C[C@]%10(C)OC%11C(C)=CC(=O)OC%11CC%10OC9C[C@@H](C)C8OC7CC6O[C@]5(C)CC5OC5C4OC3CC2O1 (some centres undefined) | inactive: -1.91% |
| O=C(/C=C/c1ccccc1)OC1CN2CCC1CC2 (centres undefined) | inactive: 0.726% |

| SMILES | growth rescue |
| --- | --- |
| CCCC1OP(=O)(Nc2ccccc2)OCC1CC (centres undefined) | inactive: -0.811% |
| Cc1nn(-c2ccccc2)c2c1P(=O)(N1CCOCC1)N(C)C(c1ccccc1)=N2 (centres undefined) | inactive: -0.941% |
| Cc1ccc(C(=O)OC2CN3CCC2CC3)cc1 (centres undefined) | inactive: 0.198% |
| CC1CCC(C(C)C)C(OP(=O)(Nc2ccccn2)c2ccccc2)C1 (centres undefined) | inactive: 1.19% |
| Nc1cccc([As](=O)(O)c2ccccc2)c1 | inactive: -0.484% |
| NS(=O)(=O)c1cccc(NC(=O)COC(=O)C(O)(c2ccccc2)c2ccccc2)c1 | inactive: -0.225% |
| O=P1(Nc2ccc(Br)cn2)COc2ccccc2OC1 | inactive: 0.442% |
| O=[As](O)(c1cccs1)c1cccs1 | inactive: -1.57% |
| Cc1ccc(OCC(=O)OC2CN3CCC2CC3)cc1 (centres undefined) | inactive: -0.087% |
| O=P1(Nc2ncccn2)COc2ccccc2OC1 | inactive: -0.493% |
| O=C(O)COc1ccc([As](=O)(O)O)cc1[N+](=O)[O-] | inactive: -0.386% |
| Nc1ccccc1[As](=O)(O)c1ccccc1 | inactive: 0.369% |
| CCOP1(=S)c2c(C)nn(CCC#N)c2N=C(c2ccccc2F)N1C (centres undefined) | inactive: 0.694% |
| O=P(Nc1nccs1)(c1ccccc1)c1nc2ccccc2s1 (centres undefined) | inactive: 1.61% |
| CC1=CC(=O)OC2CC3OC4C[C@@H](C)C5OC6CC7O[C@]8(C)C/C=C\C9OC%10CC%11OC(CC(C)C%12OCCO%12)CC(O)[C@]%11(C)OC%10CC9OC8C[C@]7(C)O[C@]6(C)CCC5OC4C[C@]3(C)OC12 (some centres undefined) | inactive: -0.782% |
| O=P(Nc1nccs1)(Oc1ccccc1)Oc1ccccc1 | inactive: -1.29% |
| CS(=O)(=O)c1cc([N+](=O)[O-])c2no[n+]([O-])c2c1 | inactive: 0.069% |
| N#CCCN(C(=O)COC(=O)C(O)(c1ccccc1)c1ccccc1)c1ccc(F)cc1 | inactive: -0.894% |
| CCOP1(=S)c2c(C)nn(CCC#N)c2N=C(c2ccc(F)cc2)N1C (centres undefined) | inactive: 0.065% |
| CN(C(=O)Cc1ccccc1)[C@@H]1CC[C@]2(CCCO2)C[C@H]1N1CCCC1 | inactive: -0.509% |
